Measured values from several laboratories, pooled; numbers as filed in NIAID ChemDB.

Shared fields: whole-cell or culture tests; species: Mycobacterium tuberculosis

A number after MIC or MFC names an inhibition level or a share of isolates.

SMILES,strain or isolate,cells,read by,conditions,measure,tested at,value
CO[C@H]1/C=C/O[C@@]2(C)Oc3c(C)c(O)c4c(=O)c(c5oc6cc(N7CCN(CC(C)C)CC7)cc(=O)c6nc5c4c3=C2O)NC(=O)/C(C)=C\C=C\[C@H](C)[C@H](O)[C@@H](C)[C@@H](O)[C@@H](C)[C@H](OC(C)=O)[C@@H]1C,32 (isoniazid-resistant),-,-,-,MIC,-,0.0039 µg/mL
CCOc1ccc(NC(=O)OCCC[NH+]2CCCCC2)cc1,My 331/88,-,-,-,MIC,-,500 µM
CCN(CC)CCCCCNc1cc(Cl)c(Cl)cc1[N+](=O)[O-],H37Rv,-,BACTEC,-,MIC bound,-,>6.25 µg/mL
CCCCCCCCCN1C(=O)CC(NC(C)CCN(CC)CC)C1=O,Clinical isolate (isoniazid-resistant),-,-,-,MIC,-,≤20 µg/mL
COC(=O)C(Cc1c[nH]c2ccccc12)NC(=O)C(Cc1c[nH]c2ccccc12)NC(=O)C(Cc1c[nH]c2ccccc12)NC(=O)C(Cc1c[nH]c2ccccc12)NC(=O)C(Cc1c[nH]c2ccccc12)NC(=O)C(Cc1c[nH]c2ccccc12)NC(=O)OC(C)(C)C,H37Rv,-,BACTEC,-,inhibition,12.5 µg/mL,39%
C=CCn1c(-c2ccc(N=N/C(C(=O)OCC)=C(/C)O)cc2)n[nH]c1=S,H37Rv,-,-,-,MIC,-,>12.5 µg/mL
Cc1cccc(/C=N/Nc2cc(C)c3ccccc3n2)n1,H37Rv,-,BACTEC,-,inhibition,12.5 µg/mL,99%
CCCCCCCCCN1C(=O)C=CC1=O,H37Rv,-,-,-,MIC,-,≤20 µg/mL
CCOc1ccc(/C=C2\C(=O)N(/C=C3/C(=O)Oc4ccccc4C3=O)C(=NC(C)=O)N2C)cc1,H37Rv,-,BACTEC,-,inhibition,12.5 µg/mL,0%
CCCCCC(C)NCCNCCCCc1ccccc1,-,-,-,-,MIC,-,25 µM
CCCCCCOc1ccc(NC(=O)OCCC[NH+]2CCCCC2)cc1,My 331/88,-,-,-,MIC,-,16 µM
CC[C@@H](CO)NCCN[C@@H](CC)CO,K139,-,-,-,MIC,-,16 µg/mL
CCOC(=O)Cn1sc2nc(C)cc(C)c2c1=O,H37Rv,-,-,-,MIC,-,<12.5 µg/mL
NNC(=O)c1cc(/C=C/c2ccc(-c3cccs3)s2)nc2ccccc12,H37Rv,-,fluorescence,-,MIC,-,>6.25 µg/mL
O=C(c1ccc(Cl)c(Cl)c1)c1cn(-c2ccccc2)nn1,H37Rv,-,-,-,MIC,-,>12.5 µg/mL
C[C@H]1COc2c(N3CCN(C)CC3)c(F)cc3c(=O)c(C(=O)O)cn1c23,22 strains (rifampicin-susceptible),-,-,-,MIC90,-,0.39 µg/mL
N#C/C(=N\NC(=O)c1cccnc1)c1ccc(Cl)cc1,H37Rv,-,BACTEC,-,inhibition,12.5 µg/mL,6%
Cc1[nH]n(CCO)c(=O)c1N=Nc1ccc(C(=O)N/N=C/c2ccc(F)cc2)cc1,H37Rv,-,-,-,inhibition,12.5 µg/mL,0%
CN(C)CCNc1cccc2sc3ccc(O)cc3c(=O)c12,H37Rv,-,BACTEC,-,MIC bound,-,≤12.5 µg/mL
Cc1coc(C)c1C(=O)c1cn(-c2ccc(Cl)cc2)nn1,H37Rv,-,-,-,inhibition,12.5 µg/mL,0%
C=C1c2cccc(O)c2C(O)=C2C(=O)[C@]3(O)C(O)=C(C(N)=O)C(=O)[C@@H](N(C)C)[C@@H]3[C@@H](O)[C@H]12.Cl,H37Rv,-,BACTEC,-,MIC bound,-,>12.5 µg/mL
O=C(Oc1ccc(Cl)cc1C(=O)Nc1cccc(Cl)c1)c1cnccn1,H37Rv 331/88,-,-,21 d,MIC,-,4 µM
CCOc1cc(/C=N/N=c2\scc(-c3cc4cc(Br)ccc4oc3=O)n2Cc2ccccc2)ccc1O,H37Rv,-,-,-,MIC,-,>6.25 µg/mL
Cc1noc(NS(=O)(=O)c2ccc(N=Nc3c[nH]c(=O)c(O)c3)cc2)c1C,H37Rv,-,BACTEC,-,MIC bound,-,>12.5 µg/mL
CC(C)C[C@@H](CO)NCCNC[C@]1(C)CCC[C@]2(C)c3ccc(C(C)C)cc3CC[C@@H]12,-,-,-,-,MIC,-,25 µM
O=c1oc2ccc(Br)cc2cc1-c1cs/c(=N\N=C\c2ccc(F)cc2)n1Cc1ccccc1,H37Rv,-,-,-,MIC,-,>6.25 µg/mL
O=C(Oc1cc(Cl)ccc1C(=O)Nc1ccc(C(F)(F)F)cc1)c1cnccn1,extensively drug resistant strain,-,-,-,MIC,-,29.44 µM
OCc1ccccc1Sc1ccccc1CNCCNCC(c1ccccc1)c1ccccc1,-,-,-,-,MIC,-,6.25 µM
O=[N+]([O-])c1ccc(CSc2ncn[nH]2)c([N+](=O)[O-])c1,My 331/88,-,-,-,MIC,-,62.5 µM
Cc1cc(C)c2c(n1)S(=O)(=O)N(CC(=O)c1ccccn1)C2=O,H37Rv,-,-,-,MIC,-,>12.5 µg/mL
O=C(NC(N1CCN(c2cc3c(cc2F)c(=O)c(C(=O)O)cn3C2CC2)CC1)(C(F)(F)F)C(F)(F)F)c1ccccc1,H37Rv,VERO,-,-,MIC,-,0.78 µg/mL
Fc1ccc(CSc2ncn[nH]2)cc1F,My 331/88,-,-,-,MIC,-,>1000 µM
Cc1cc(=O)c(C)c2sc3ccccc3nc1-2,H37Rv,-,BACTEC,-,MIC bound,-,≤12.5 µg/mL
O=C1/C(=C/c2ccc(OCCCCN3CCCCCC3)cc2)CC/C1=C\c1ccc(OCCCCN2CCCCCC2)cc1,H37Rv,-,visual reading,-,MIC99,-,6.25–12.5 µM
COC1=C(Br)[C@@H](O)[C@]2(C=C1Br)CC(C(=O)NCCCCNC(=O)C1=NO[C@]3(C=C(Br)C(OC)=C(Br)[C@@H]3O)C1)=NO2,H37Rv (rifampin-resistant),-,-,-,MIC,-,12.5 µg/mL
COc1cc2c(cc1O)N=CC1CCC(O)N1C2=O,H37Rv,VERO,BACTEC,-,MIC,-,12.5 µg/mL
Cc1cc(C)c2c(n1)S(=O)(=O)N(CCO)C2=O,H37Rv,-,-,-,EC50,-,>12.5 µg/mL
CCCCCCCCCN1C(=O)CC(C)(SCCO)C1=O,H37Ra,-,-,-,MIC,-,≤20 µg/mL
O=C(c1ccc(Br)cc1)c1cn(-c2ccc(Cl)cc2)nn1,H37Rv,-,-,-,inhibition,12.5 µg/mL,0%
COc1ccccc1/C=N/N=c1\scc(-c2cc3ccccc3oc2=O)n1Cc1ccccc1,H37Rv,-,-,-,inhibition,6.25 µg/mL,<11%
c1cc(NCCNC2CCCCC2)c2cccnc2c1,-,-,-,-,MIC,-,3.13 µM
O=C(CCN1C(=O)CCC1=O)Nc1ccc(N2CCCCC2)cc1,Clinical isolate (isoniazid-resistant),-,-,-,MIC,-,≤20 µg/mL
CCOc1cc(/C=C2\CC/C(=C\c3ccc(OCCCN4CCCC(C)C4)c(OCC)c3)C2=O)ccc1OCCCN1CCCC(C)C1,H37Rv,-,visual reading,-,MIC99,-,3.125–6.25 µM
NC1=NN(c2ccccc2)C(=O)C1C(=O)C(=O)NC1C2CC3CC(C2)CC1C3,H37Rv,-,resazurin,-,inhibition,6.25 µg/mL,-20%
O=C(O)c1cc(-c2cccs2)nc2ccccc12,H37Rv,-,fluorescence,-,MIC,-,>6.25 µg/mL
COc1ccccc1/C=N/N=c1\scc(-c2cc3cc(Br)ccc3oc2=O)n1Cc1ccccc1,H37Rv,-,-,-,MIC,-,>6.25 µg/mL
O=C(c1cn(-c2ccc(Cl)cc2)nn1)c1cccs1,H37Rv,-,-,-,inhibition,12.5 µg/mL,0%
Nc1nc(-n2cc(C(=O)O)c(=O)c3cc(F)c(N4CC(O)C4)c(Cl)c32)c(F)cc1F,23 strains (rifampicin-resistant),-,-,-,MIC50,-,1.56 µg/mL
Cc1ccc(CNCCNCc2ccccc2)cc1,-,-,-,-,MIC,-,25 µM
O=NNc1ccc(Cl)cn1,H37Rv,-,BACTEC,-,MIC bound,-,>12.5 µg/mL
CC1CCCC(NCCNCC23CC4CC(CC(C4)C2)C3)C1C,-,-,-,-,MIC,-,9.4 µM
CC(=O)C1=C(O)c2c(C)cc(C)nc2S(=O)(=O)N1C,H37Rv,-,-,-,inhibition,12.5 µg/mL,37%
O=C(c1cn(O)nn1)c1ccc(Br)cc1Br,H37Rv,-,-,-,MIC,-,>12.5 µg/mL
O=C(Oc1ccc(Cl)cc1C(=O)Nc1cccc(C(F)(F)F)c1)c1cnccn1,H37Rv 331/88,-,-,21 d,MIC,-,2 µM
C[C@]1(COc2ccc(N3CCC(Oc4ccc(OC(F)(F)F)cc4)CC3)cc2)Cn2cc([N+](=O)[O-])nc2O1,ATCC 35812 (Kurono),-,-,-,MIC,-,0.012 µg/mL
O=C(Nc1ccccc1)c1cc(/C=C/c2ccc(-c3cccs3)s2)nc2ccccc12,H37Rv,-,fluorescence,-,MIC,-,>6.25 µg/mL
CC12CCC(O)CC1=CCC1C2CCC2(C)C(NC(=O)C3CCCN3C(=O)OCc3ccccc3)CCC12,H37Rv,-,BACTEC,-,inhibition,12.5 µg/mL,18%
CC1=CC(=O)N(CC2CCC3CC2C3(C)C)C1=O,H37Rv,-,-,-,MIC,-,≤20 µg/mL
CCCCCCCOc1ccc(NC(=O)OCCC[NH+]2CCCCC2)cc1,My 331/88,-,-,-,MIC,-,16 µM
O=C(O)c1cc(-c2ccc(Br)cc2)nc2ccccc12,H37Rv,-,fluorescence,-,MIC,-,6.25 µg/mL
Cc1[nH][nH]c(=O)c1N=Nc1ccc(-c2n[nH]c(=O)n2-c2ccccc2)cc1,H37Rv,-,-,-,EC50,-,>12.5 µg/mL
CCCCCCCCCN1C(=O)C=C(C)C1=O,H37Rv,-,-,-,MIC,-,≤20 µg/mL
CCN(CC)CCCCOc1ccc(/C=C2\CC/C(=C\c3ccc(OCCCCN(CC)CC)cc3)C2=O)cc1,H37Rv,-,visual reading,-,MIC99,-,6.25 µM
CCCCNC(=O)CN1C(C(C)=O)=C(O)c2c(C)cc(C)nc2S1(=O)=O,H37Rv,-,-,-,MIC,-,>12.5 µg/mL
O=C(O)C1=C(C(=O)Nc2cccc3cccnc23)[C@H]2C=C[C@@H]1O2,H37Rv,-,BACTEC,-,inhibition,12.5 µg/mL,15%
CCCCCCCCCCCCOc1ccccc1NC(=O)OCCC[NH+]1CCCCC1,My 331/88,-,-,-,MIC,-,16 µM
CO[C@H](C)[C@@H](NC(=O)[C@@H]1CCCN1C)[C@@H]1O[C@@H](SCCOC(=O)c2ccccc2O)[C@@H](O)[C@H](O)[C@H]1O,H37Rv,-,BACTEC,-,inhibition,128 µg/mL,63%
CC(=O)n1nc(-c2ccc(N=Nc3c(C)[nH]n(-c4ccccc4)c3=O)cc2)n(-c2ccccc2)c1=S,H37Rv,-,-,-,MIC,-,>12.5 µg/mL
COc1ccc(NC(=O)OCCC[NH+]2CCCCC2)cc1,My 331/88,-,-,-,MIC,-,500 µM
N#Cc1c(N)[nH]c(S)c1C#N,H37Rv,-,BACTEC,-,MIC bound,-,>6.25 µg/mL
O=C(Nc1nc(-c2ccc(Br)s2)cs1)c1cc(-c2ccccc2)nc2ccccc12,H37Rv,-,fluorescence,-,MIC,-,>6.25 µg/mL
C=CCN(CC=C)C(=O)Nc1ccc(C(=O)N/N=C/c2cccc(OC)c2OC)cc1,H37Rv,-,resazurin,-,inhibition,6.25 µg/mL,23%
CCOc1cc(/C=C2\CC/C(=C\c3ccc(OCCCN4CCCCC4C)c(OCC)c3)C2=O)ccc1OCCCN1CCCCC1C,H37Rv,-,visual reading,-,MIC99,-,12.5 µM
O=C(Oc1cc(Cl)ccc1C(=O)Nc1cccc(Br)c1)c1cnccn1,331/88,-,-,21 d,MIC,-,8 µM
NC(=S)c1cccc(CSc2ncn[nH]2)c1,My 331/88,-,-,-,MIC,-,500 µM
CCCCCCCCOc1ccc(NC(=O)OCCC[NH+]2CCCCC2)cc1,My 331/88,-,-,-,MIC,-,8 µM
Cc1cc2c(=O)cc(-c3ccc(Cl)cc3Cl)oc2c(C(=O)O)c1C,H37Rv,-,BACTEC,-,inhibition,12.5 µg/mL,21%
Cc1coc(C)c1C(=O)c1cn(-c2ccccc2)nn1,H37Rv,-,-,-,inhibition,12.5 µg/mL,82%
CCCCCCCCCN1C(=O)CC(CC)C1=O,H37Rv,-,-,-,MIC,-,≤20 µg/mL
O=C(c1cn(-c2ccc(Cl)cc2)nn1)c1ccc(Cl)cc1Cl,H37Rv,-,-,-,inhibition,12.5 µg/mL,0%
CCCCCCCCCCCNCCN[C@H]1C[C@@H]1c1ccccc1,-,-,-,-,MIC,-,50 µM
Cn1cnnc1SCc1ccccc1,My 331/88,-,-,-,MIC,-,>1000 µM
O=C(Oc1ccc(Br)cc1C(=O)Nc1ccc(C(F)(F)F)cc1)c1cnccn1,extensively drug resistant Praha 131,-,-,14 d,MIC,-,0.25 µM
CCCCCCCCNC1CC(=O)N(CCCCCCCC)C1=O,H37Ra,-,-,-,MIC,-,≤20 µg/mL
O=C1S/C(=C2/C(=O)N(CN3CCCCC3)c3ccc(Br)cc32)C(=O)N1CN1CCCCC1,H37Rv,-,BACTEC,-,MIC bound,-,>12.5 µg/mL
Cc1[nH]n(-c2ccccc2)c(=O)c1N=Nc1ccc(-c2n[nH]c(=S)o2)cc1,H37Rv,-,-,-,EC50,-,<12.5 µg/mL
Cn1cnnc1SCc1ccc([N+](=O)[O-])cc1[N+](=O)[O-],My 331/88,-,-,-,MIC,-,>1000 µM
CCCCN1C(=O)C=CC1=O,H37Ra,-,-,-,MIC,-,≤20 µg/mL

MIC bound: limit read from a one-dose screen. Lines come from different laboratories, so protocols vary. Two numbers with a dash give a range or band. Blank or dashed fields: not listed here. ECn is the concentration giving n% inhibition of infection, replication or growth. Inhibition is in % at the dose shown (toxicity tests: loss of growth or viability).